{"source": "PubChem BioAssay AID504761, Drosophila RNAi Screening Center – 2011", "test": "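Insect host genes that dengue virus relies on to spread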 (primary screen)", "cell system": "D.Mel-2 cells from Drosophila", "knock-down reagent": "long dsRNA against Drosophila genes", "treatment": "infection with dengue virus type 2; dose and infection time not stated", "measurement": "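Per well on two replicate plates, imaging gave the percent of cells positive for viral envelope protein, ranked by infection, and a nuclear count of cells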", "reading the numbers": "infection score: higher = more virus-infected cells", "hit rule": "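Very low infection ranking in both replicate wells (chance probability at most 0.065), then a retest showing infection dropped 1.5-fold or more at p below 0.05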", "calls": "active = confirmed: knock-down lowers infection; inactive = not picked or not confirmed", "note": "In all, the deposit lists about 22,000 reagents; below is a random part of those that have a named target and a result. In the full data, 116 (0.52%) are marked active. 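Calls depend on retest data that are not deposited; infection was ranked per plate without normalising between plates; the unit of the infection score is not given.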 Reagents against one gene are numbered here. A plus sign joins genes that one reagent is predicted to hit. Further read-outs or replicates are left out here. Reagent sequences are not shown. Not given: the amount of reagent, the time to read-out."}
{"gene":"CG3734","dsRNA no.":1,"infection score, replicate 1":2.13,"Call":"inactive"}
{"gene":"CG3734","dsRNA no.":2,"infection score, replicate 1":4.69,"Call":"inactive"}
{"gene":"Ugt37B1 (UDP-glycosyltransferase family 37 member B1)","dsRNA no.":1,"infection score, replicate 1":9.77,"Call":"inactive"}
{"gene":"CG30339","dsRNA no.":1,"infection score, replicate 1":0.51,"Call":"inactive"}
{"gene":"CG6262","dsRNA no.":1,"infection score, replicate 1":5.32,"Call":"inactive"}
{"gene":"CG6262","dsRNA no.":2,"infection score, replicate 1":10.2,"Call":"inactive"}
{"gene":"CG14947","dsRNA no.":1,"infection score, replicate 1":4.08,"Call":"inactive"}
{"gene":"CG12708 + CG15646","dsRNA no.":1,"infection score, replicate 1":1.62,"Call":"inactive"}
{"gene":"Arpc1 (Actin-related protein 2/3 complex, subunit 1)","dsRNA no.":1,"infection score, replicate 1":46.2,"Call":"inactive"}
{"gene":"Arpc1 (Actin-related protein 2/3 complex, subunit 1)","dsRNA no.":2,"infection score, replicate 1":21.3,"Call":"inactive"}

2 entries from above, sorted by “infection score, replicate 1”, high to low.
{"gene":"Arpc1 (Actin-related protein 2/3 complex, subunit 1)","dsRNA no.":1,"infection score, replicate 1":46.2,"Call":"inactive"}
{"gene":"CG12708 + CG15646","dsRNA no.":1,"infection score, replicate 1":1.62,"Call":"inactive"}

More reagents follow:
{"gene":"aspr (asperous)","dsRNA no.":1,"infection score, replicate 1":4.63,"Call":"inactive"}
{"gene":"aspr (asperous)","dsRNA no.":2,"infection score, replicate 1":2.41,"Call":"inactive"}
{"gene":"CG6310","dsRNA no.":1,"infection score, replicate 1":3,"Call":"inactive"}
{"gene":"CG15820","dsRNA no.":1,"infection score, replicate 1":13.2,"Call":"inactive"}
{"gene":"CG15820","dsRNA no.":2,"infection score, replicate 1":0.65,"Call":"inactive"}
